Compound potency records, mixed from different reports. Data source: NIAID ChemDB in PubChem.

All rows: enzyme or target tests; organism: HIV-1; target: Integrase; endpoint: IC50

Blank or dashed fields: not listed here. ICn is the concentration giving n% inhibition. Lines come from different laboratories, so protocols vary.

SMILES | strain | method | result
Oc1ccc(/C=C/c2ncc3ccccc3n2)cc1 | - | 3′ processing | >>200 µM
C[C@H](CCC(=O)Nc1ccc(S(=O)(=O)c2ccc(NC(=O)CC[C@@H](C)[C@H]3CC[C@H]4[C@@H]5CC[C@H]6C[C@@H](O)CC[C@]6(C)[C@H]5CC(O)[C@]34C)cc2)cc1)[C@H]1CC[C@H]2[C@@H]3CC[C@H]4C[C@@H](O)CC[C@]4(C)[C@H]3CC(O)[C@]12C | - | strand transfer | >100 µM
NC(N)=NS(=O)(=O)c1ccc(Nc2c3ccccc3nc3c(C(=O)NC(CO)(CO)CO)cccc23)cc1 | RF | strand transfer | >180 µM
CC(=O)/C(N=Nc1ccc(S(=O)(=O)c2ccc(N=N/C(C(C)=O)=C(/C)O)cc2)cc1)=C(\C)O | - | strand transfer | 90 µM
Cc1cn(C2CC(OP(=O)(O)OCC3OC(n4ccc(N)nc4=O)CC3O)C(COP(=O)(O)O)O2)c(=O)[nH]c1=O | - | strand transfer | 37 µM
Oc1ccc(/C=C/c2ccc3cccc(O)c3n2)cc1O | - | 3′ processing | 130.7 µM
Cc1cn(C2CC(OP(=O)(O)OCC3OC(n4cnc5c(N)ncnc54)CC3O)C(COP(=O)(O)OC3CC(n4ccc(N)nc4=O)OC3CO)O2)c(=O)[nH]c1=O | - | 3′ processing | 65 µM
CC(=O)Oc1ccc(/C=C/c2ncc3ccccc3n2)cc1 | - | 3′ processing | >>200 µM
Nc1ccn([C@H]2C[C@H](O)[C@@H](COP(=O)(O)O[C@H]3C[C@H](n4cnc5c(N)ncnc54)O[C@@H]3COP(=O)(O)O)O2)c(=O)n1 | - | 3′ processing | 6 µM
O=[N+]([O-])c1cc(S(=O)(=O)c2ccc(O)c([N+](=O)[O-])c2)ccc1O | - | 3′ processing | >100 µM
CN(C)CCCNC(=O)c1cc(NC(=O)c2cc(NC(=O)c3cc(NC(=O)c4ccc(C(=O)Nc5cc(C(=O)Nc6cc(C(=O)Nc7cc(C(=O)NCCCN(C)C)n(C)c7)n(C)c6)n(C)c5)nc4)cn3C)cn2C)cn1C | - | disintegration | 0.68 µM
COc1ccc(/C=C/c2ncc3ccccc3n2)cc1O | - | 3′ processing | >>200 µM
O/N=C1\C(=C\c2ccc3c(c2)OCCO3)CCCC1C(NO)c1ccc2c(c1)OCCO2 | RF | strand transfer | 200 µM
CN(C)CCCNC(=O)c1cc(NC(=O)c2cc(NC(=O)c3cc(NC(=O)c4cccc(C(=O)Nc5cc(C(=O)Nc6cc(C(=O)Nc7cc(C(=O)NCCCN(C)C)n(C)c7)n(C)c6)n(C)c5)n4)cn3C)cn2C)cn1C | - | 3′ processing | 100 µM
CC(=O)Oc1ccc(/C=C/c2ncc3ccccc3n2)cc1OC(C)=O | - | 3′ processing | >>200 µM
NCCCCNCCCN | - | 3′ processing | >100 µM
Nc1ccn(C2CC(OP(=O)(O)OCC3OC(n4cnc5c(=O)[nH]c(N)nc54)CC3O)C(COP(=O)(O)O)O2)c(=O)n1 | - | strand transfer | 12.4 µM
CN(C)CCCNC(=O)c1cc(NC(=O)c2cc(NC(=O)c3cc(NC(=O)c4ccnc(C(=O)Nc5cc(C(=O)Nc6cc(C(=O)Nc7cc(C(=O)NCCCN(C)C)n(C)c7)n(C)c6)n(C)c5)c4)cn3C)cn2C)cn1C | - | 3′ processing | 33.3 µM
CO[C@H]1/C=C/O[C@@]2(C)Oc3c(C)c(O)c4c(O)c(c(/C=N/N5C(C)CN(Cc6ccc([N+](=O)[O-])cc6)CC5C)c(O)c4c3C2=O)NC(=O)/C(C)=C\C=C\[C@H](C)[C@H](O)[C@@H](C)[C@@H](O)[C@@H](C)[C@H](OC(C)=O)[C@@H]1C | RF | strand transfer | 19.7 µM
Cc1cn(C2CC(OP(=O)(O)OCC3OC(n4cnc5c(N)ncnc54)CC3O)C(COP(=O)(O)OC3CC(n4ccc(N)nc4=O)OC3COP(=O)(O)O)O2)c(=O)[nH]c1=O | - | 3′ processing | 27 µM
Cn1cc(NC(=O)c2cc(NC(=O)CCCCCCCCCC(=O)Nc3cc(C(=O)Nc4cc(C(=O)NCCC(N)=[NH2+])n(C)c4)n(C)c3)cn2C)cc1C(=O)NCCC(N)=[NH2+] | - | 3′ processing | 37.6 µM
Cc1cn(C2CC(O)C(COP(=O)(O)OC3CC(n4cnc5c(N)ncnc54)OC3COP(=O)(O)O)O2)c(=O)[nH]c1=O | - | strand transfer | 7 µM
COc1cc(/C=C/C(=O)CC(=O)/C=C/c2ccc(O)c(OC)c2)ccc1O | - | strand transfer | 40 µM
O=CNc1ccc(S(=O)(=O)c2ccc(NC=O)cc2)cc1 | - | 3′ processing | >100 µM
Nc1ncnc2c1ncn2C1CC(O)C(COP(=O)(O)OC2CC(n3cnc4c(N)ncnc43)OC2COP(=O)(O)O)O1 | - | strand transfer | 100 µM
O=C(O)c1ccc2ccc(/C=C/c3ccc(O)c(O)c3)nc2c1O | - | 3′ processing | 2.4 µM
O=S(=O)(c1ccc(Cl)c(Cl)c1)c1ccc(Cl)c(Cl)c1 | - | strand transfer | >100 µM
CC(O)C(NCNC(=O)C1=C(O)C2(O)C(=O)C3=C(O)c4c(O)cccc4C(C)(O)C3CC2C(N(C)C)C1=O)C(=O)O | RF | 3′ processing | 1.3 µM
N=C(N)c1ccc(OCCCCCOc2ccc(C(=N)N)cc2)cc1 | - | 3′ processing | >100 µM
NC(N)=NC(N)=Nc1ccc(S(=O)(=O)c2ccc(N=C(N)N=C(N)N)cc2)cc1 | - | 3′ processing | >100 µM
CN(C)CCCNC(=O)c1cc(NC(=O)c2cc(NC(=O)c3cc(NC(=O)c4ccccc4C(=O)O)cn3C)cn2C)cn1C | - | 3′ processing | >100 µM
CN(C)C1C(=O)C(C(=O)NCNC(CO)(CO)CO)=C(O)C2(O)C(=O)C3=C(O)c4c(O)cccc4C(C)(O)C3CC12 | RF | 3′ processing | 1.3 µM
Cc1cn(C2CC(O)C(COP(=O)(O)OC3CC(n4ccc(N)nc4=O)OC3COP(=O)(O)O)O2)c(=O)[nH]c1=O | - | strand transfer | 6 µM

The last 4 rows once more:

NC(N)=NC(N)=Nc1ccc(S(=O)(=O)c2ccc(N=C(N)N=C(N)N)cc2)cc1 ; method: 3′ processing ; result: >100 µM
CN(C)CCCNC(=O)c1cc(NC(=O)c2cc(NC(=O)c3cc(NC(=O)c4ccccc4C(=O)O)cn3C)cn2C)cn1C ; method: 3′ processing ; result: >100 µM
CN(C)C1C(=O)C(C(=O)NCNC(CO)(CO)CO)=C(O)C2(O)C(=O)C3=C(O)c4c(O)cccc4C(C)(O)C3CC12 ; strain: RF ; method: 3′ processing ; result: 1.3 µM
Cc1cn(C2CC(O)C(COP(=O)(O)OC3CC(n4ccc(N)nc4=O)OC3COP(=O)(O)O)O2)c(=O)[nH]c1=O ; method: strand transfer ; result: 6 µM